Measurements as given in US9447134B2 (Brandeis University, priority 2012, dated 2016).
The match of structure and compound is tentative.

Protein sequences, listed by entry. Tags and fused reporters are not part of them.
UniProt Q8T6T2, whole entry: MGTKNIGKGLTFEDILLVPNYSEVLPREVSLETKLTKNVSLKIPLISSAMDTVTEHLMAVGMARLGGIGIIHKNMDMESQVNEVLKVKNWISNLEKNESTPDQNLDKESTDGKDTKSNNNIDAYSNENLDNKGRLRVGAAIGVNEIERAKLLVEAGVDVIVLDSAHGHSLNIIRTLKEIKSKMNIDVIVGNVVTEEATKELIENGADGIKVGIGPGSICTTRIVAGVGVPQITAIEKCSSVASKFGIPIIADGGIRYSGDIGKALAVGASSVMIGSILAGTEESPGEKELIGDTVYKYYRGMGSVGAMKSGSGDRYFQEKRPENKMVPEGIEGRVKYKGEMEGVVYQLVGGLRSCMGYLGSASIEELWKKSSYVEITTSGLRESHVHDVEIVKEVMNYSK

Molecular target: C. parvum/C. hominis IMPDH (CpIMPDH), recombinant, purified from E. coli (Cryptosporidium parvum, UniProt Q8T6T2)
Settings: pH 8

## CC1CN(C)C(C)c2c1oc1ccc(NC(=O)Cc3nn(C)c(=O)c4ccccc34)cc21 (stereo not shown)
  IC50: 1900 nM
